Experiments:
Experiment in all cases: cell-based or functional assay
[1] = biological target: HIV-1 Env of isolate MG RM-A-011 (subtype A) (HIV-1)
[2] = biological target: HIV-1 Env of isolate MG RM-A-010 (subtype A) (HIV-1)
[3] = biological target: HIV-1 Env of isolate MG RM-AG-003 (subtype AG) (HIV-1)
[4] = biological target: HIV-1 Env of isolate MG RM-AG-006 (subtype AG) (HIV-1)
[5] = biological target: HIV-1 Env of isolate MG RM-AG-012 (subtype AG) (HIV-1)
[6] = biological target: HIV-1 Env of isolate MG RM-AG-013 (subtype AG) (HIV-1)
[7] = biological target: HIV-1 Env of isolate MG RM-A-004 (subtype A) (HIV-1)
[8] = biological target: HIV-1 Env of isolate MG RM-A-007 (subtype A) (HIV-1)
[9] = biological target: HIV-1 Env of isolate MG RM-A-006 (subtype A) (HIV-1)
[10] = biological target: HIV-1 Env of isolate MG RM-A-013 (subtype A) (HIV-1)
[11] = biological target: HIV-1 Env of isolate MG RM-A-003 (subtype A) (HIV-1)
[12] = biological target: HIV-1 Env of isolate MG RM-A-012 (subtype A) (HIV-1)
[13] = biological target: HIV-1 Env of isolate MG RM-AG-002 (subtype AG) (HIV-1)
[14] = biological target: HIV-1 Env of isolate MG RM-AG-001 (subtype AG) (HIV-1)
[15] = biological target: HIV-1 Env of isolate MG RM-AG-009 (subtype AG) (HIV-1)
[16] = biological target: HIV-1 Env of isolate MG RM-A-008 (subtype A) (HIV-1)
[17] = biological target: HIV-1 Env of isolate MG RM-AG-011 (subtype AG) (HIV-1)
[18] = biological target: HIV-1 Env of isolate MG RM-A-002 (subtype A) (HIV-1)
[19] = biological target: HIV-1 Env of isolate MG RM-A-001 (subtype A) (HIV-1)
[20] = biological target: HIV-1 Env of isolate MG RM-AG-005 (subtype AG) (HIV-1)
[21] = biological target: HIV-1 Env of isolate MG RM-A-014 (subtype A) (HIV-1)
[22] = biological target: HIV-1 Env of isolate MG RM-A-005 (subtype A) (HIV-1)
[23] = biological target: HIV-1 Env of isolate MG RM-A-009 (subtype A) (HIV-1)
[24] = biological target: HIV-1 Env of isolate MG RM-AG-008 (subtype AG) (HIV-1)
[25] = biological target: HIV-1 Env of isolate MG RM-C-009 (HIV-1)
[26] = biological target: HIV-1 Env of isolate MG RM-C-017 (HIV-1)
[27] = biological target: HIV-1 Env of isolate MG RM-C-019 (HIV-1)
[28] = biological target: HIV-1 Env of isolate MG RM-C-015 (HIV-1)
[29] = biological target: HIV-1 Env of isolate MG RM-C-004 (HIV-1)
[30] = biological target: HIV-1 Env of isolate MG RM-C-001 (HIV-1)
[31] = biological target: HIV-1 Env of isolate MG RM-C-013 (HIV-1)
[32] = biological target: HIV-1 Env of isolate MG RM-C-012 (HIV-1)
[33] = biological target: HIV-1 Env of isolate MG RM-C-008 (HIV-1)
[34] = biological target: HIV-1 Env of isolate MG RM-C-010 (HIV-1)
[35] = biological target: HIV-1 Env of isolate MG RM-C-006 (HIV-1)
[36] = biological target: HIV-1 Env of isolate MG RM-C-014 (HIV-1)
[37] = biological target: HIV-1 Env of isolate MG RM-C-005 (HIV-1)
[38] = biological target: HIV-1 Env of isolate MG RM-C-002 (HIV-1)
[39] = biological target: HIV-1 Env of isolate MG RM-C-007 (HIV-1)

Binder	IC50, pseudovirus neutralization [1] [µg/mL]	IC50, pseudovirus neutralization [2] [µg/mL]	IC50, pseudovirus neutralization [3] [µg/mL]	IC50, pseudovirus neutralization [4] [µg/mL]	IC50, pseudovirus neutralization [5] [µg/mL]	neutralization IC50 [25] [µg/mL]	neutralization IC50 [26] [µg/mL]	neutralization IC50 [27] [µg/mL]	neutralization IC50 [28] [µg/mL]	neutralization IC50 [29] [µg/mL]	neutralization IC50 [30] [µg/mL]	neutralization IC50 [31] [µg/mL]	neutralization IC50 [32] [µg/mL]	neutralization IC50 [33] [µg/mL]	neutralization IC50 [34] [µg/mL]	neutralization IC50 [35] [µg/mL]	neutralization IC50 [36] [µg/mL]	neutralization IC50 [37] [µg/mL]	neutralization IC50 [38] [µg/mL]	neutralization IC50 [39] [µg/mL]	other results
PGT-144 (4970_K22) (antibody, V domains shown) VH: QVQLVQSGAEVKKPGSSVKVSCKASGNTFRKYDVHWVRQATGQGLEWVGWMSHEGDKTESAQRFKGRVSFTRDNSASTAYIELRGLTSDDTAIYYCTGGSKHRLRDYVLYDDYGLINQQEWNDYLEFLDVWGHGTAVTVSS VL: DTVVTQSPLSLSVTPGEAASMSCTSTQSLRHSNGANYLAWYQHKPGQSPRLLIRLGSQRASGVPDRFSGSGSGTHFTLKISRVEADDAAIYYCMQGLNRPWTFGKGTKLEIK	> 50	2.79	> 50	> 50	> 50																IC50, pseudovirus neutralization [6]: > 50 µg/mL; IC50, pseudovirus neutralization [7]: 0.855 µg/mL; IC50, pseudovirus neutralization [8]: > 50 µg/mL; IC50, pseudovirus neutralization [9]: > 50 µg/mL; IC50, pseudovirus neutralization [10]: > 50 µg/mL; IC50, pseudovirus neutralization [11]: > 50 µg/mL; IC50, pseudovirus neutralization [12]: > 50 µg/mL; IC50, pseudovirus neutralization [13]: 7.78 µg/mL; IC50, pseudovirus neutralization [14]: > 50 µg/mL; IC50, pseudovirus neutralization [15]: > 50 µg/mL; IC50, pseudovirus neutralization [16]: > 50 µg/mL; IC50, pseudovirus neutralization [17]: 44.6 µg/mL; IC50, pseudovirus neutralization [18]: 0.085 µg/mL; IC50, pseudovirus neutralization [19]: 1.11 µg/mL; IC50, pseudovirus neutralization [20]: > 50 µg/mL; IC50, pseudovirus neutralization [21]: > 50 µg/mL; IC50, pseudovirus neutralization [22]: 18.6 µg/mL; IC50, pseudovirus neutralization [23]: 2.83 µg/mL; IC50, pseudovirus neutralization [24]: > 50 µg/mL
PGT-145 (4995_P16) (antibody, V domains shown) VH: QVQLVQSGAEVKKPGSSVKVSCKASGNSFSNHDVHWVRQATGQGLEWMGWMSHEGDKTGLAQKFQGRVTITRDSGASTVYMELRGLTADDTAIYYCLTGSKHRLRDYFLYNEYGPNYEEWGDYLATLDVWGHGTAVTVSS VL: EVVITQSPLFLPVTPGEAASLSCKCSHSLQHSTGANYLAWYLQRPGQTPRLLIHLATHRASGVPDRFSGSGSGTDFTLKISRVESDDVGTYYCMQGLHSPWTFGQGTKVEIK	0.484	0.028	> 50	6.6	> 50																IC50, pseudovirus neutralization [6]: 14.4 µg/mL; IC50, pseudovirus neutralization [7]: 0.068 µg/mL; IC50, pseudovirus neutralization [8]: > 50 µg/mL; IC50, pseudovirus neutralization [9]: > 50 µg/mL; IC50, pseudovirus neutralization [10]: 1.76 µg/mL; IC50, pseudovirus neutralization [11]: 3.31 µg/mL; IC50, pseudovirus neutralization [12]: 0.23 µg/mL; IC50, pseudovirus neutralization [13]: 0.056 µg/mL; IC50, pseudovirus neutralization [14]: 0.164 µg/mL; IC50, pseudovirus neutralization [15]: > 50 µg/mL; IC50, pseudovirus neutralization [16]: > 50 µg/mL; IC50, pseudovirus neutralization [17]: 0.003 µg/mL; IC50, pseudovirus neutralization [18]: 0.019 µg/mL; IC50, pseudovirus neutralization [19]: 0.062 µg/mL; IC50, pseudovirus neutralization [20]: 0.045 µg/mL; IC50, pseudovirus neutralization [21]: 1.36 µg/mL; IC50, pseudovirus neutralization [22]: 0.128 µg/mL; IC50, pseudovirus neutralization [23]: 0.235 µg/mL; IC50, pseudovirus neutralization [24]: 0.244 µg/mL
PGT-121 monoclonal antibody (4838_L06; 4873_E03) (antibody, V domains shown) VH: QMQLQESGPGLVKPSETLSLTCSVSGASISDSYWSWIRRSPGKGLEWIGYVHKSGDTNYSPSLKSRVNLSLDTSKNQVSLSLVAATAADSGKYYCARTLHGRRIYGIVAFNEWFTYFYMDVWGNGTQVTVSS VL: SDISVAPGETARISCGEKSLGSRAVQWYQHRAGQAPSLIIYNNQDRPSGIPERFSGSPDSPFGTTATLTITSVEAGDEADYYCHIWDSRVPTKWVFGGGTTLTVL						> 50	0.009	> 50	25.1	0.011	17.5	7.23	0.123	0.012	> 50	0.017	26.9	0.015	0.019	0.196	
PGT-123 monoclonal antibody (4858_P08) (antibody, V domains shown) VH: QLHLQESGPGLVKPPETLSLTCSVSGASINDAYWSWIRQSPGKRPEWVGYVHHSGDTNYNPSLKRRVTFSLDTAKNEVSLKLVDLTAADSATYFCARALHGKRIYGIVALGELFTYFYMDVWGKGTAVTVSS VL: SSMSVSPGETAKISCGKESIGSRAVQWYQQKPGQPPSLIIYNNQDRPAGVPERFSASPDFRPGTTATLTITNVDAEDEADYYCHIYDARGGTNWVFDRGTTLTVL						> 50	0.01	> 50	13.1	0.009	42.4	14.9	0.606	0.011	> 50	0.021	1	0.012	0.01	0.547	
PGT-125 monoclonal antibody (5123_A06) (antibody, V domains shown) VH: QSQLQESGPRLVEASETLSLTCNVSGESTGACTYFWGWVRQAPGKGLEWIGSLSHCQSFWGSGWTFHNPSLKSRLTISLDTPKNQVFLKLTSLTAADTATYYCARFDGEVLVYNHWPKPAWVDLWGRGIPVTVSS VL: QSALTQPPSASGSPGQSITISCNGTATNFVSWYQQFPDKAPKLIIFGVDKRPPGVPDRFSGSRSGTTASLTVSRLQTDDEAVYYCGSLVGNWDVIFGGGTTLTVL						> 50	2.36	0.13	> 50	1.82	> 50	> 50	> 50	> 50	> 50	0.015	> 50	2.09	0.008	> 50	
PGT-126 monoclonal antibody (5141_B17) (antibody, V domains shown) VH: QPQLQESGPGLVEASETLSLTCTVSGDSTAACDYFWGWVRQPPGKGLEWIGGLSHCAGYYNTGWTYHNPSLKSRLTISLDTPKNQVFLKLNSVTAADTAIYYCARFDGEVLVYHDWPKPAWVDLWGRGTLVTVSS VL: QSALTQPPSASGSPGQSISISCTGTSNRFVSWYQQHPGKAPKLVIYGVNKRPSGVPDRFSGSKSGNTASLTVSGLQTDDEAVYYCSSLVGNWDVIFGGGTKLTVL						> 50	0.17	0.006	3.14	0.033	> 50	> 50	0.111	2.12	> 50	0.014	> 50	0.298	0.011	25.3	

Reference: patent publication US20160264649A1 (published 2016)
